From patent US20240074990A1 (priority 2022, published 2024)
For part of its entries the source gives two or more results. They are shown here; other results are not. The source may hold further records. The records of an entry differ for a reason that is not stated; they may come from other doses, times, organisms or constructs than stated.

Biological target: SARS-CoV 3CL protease (Severe acute respiratory syndrome coronavirus, UniProt P0C6X7)
Assay: In-vitro enzyme activity inhibition test on SARS-CoV 3CL protease (fluorescence resonance energy transfer method)
Type: biochemical
Settings: parallel tests 1, 2, 3, tested form: acetate (acetic acid salt/solvate form o)

Structure (SMILES): Cc1cc2c(C(C)C)c(O)c(O)c(C=O)c2c(O)c1-c1c(C)cc2c(C(C)C)c(O)c(O)c(C=O)c2c1O
- inhibition percentage (0.1 μM compound, 0.1 µM): 9.43%, 6.51%, 14.2%
- inhibition percentage (0.5 μM compound, 0.5 µM): 10.7% and 21.7%
